A mixed list of measured activities; the numbers were collected in NIAID ChemDB.

All rows: growth or infection tests; species: HIV-1; cells: H9; read-out: EC50

ECn is the concentration giving n% inhibition of infection, replication or growth.

| smiles | strain or isolate | mutations | method | setting | result |
|---|---|---|---|---|---|
| Nc1ccn([C@H]2CC[C@@H](CO)O2)c(=O)n1 | LAV | - | p24 | - | <1 µM |
| O=C(NCc1ccc(F)cc1)c1nc(N2CCCCS2(=O)=O)c2cccnc2c1O | IIIB | - | p24 | - | <0.015 µM |
| CC(=O)OCOP(=O)(OCOC(C)=O)C(=O)Oc1ccccc1 | - | - | thymidine uptake | - | >30 µM |
| O=c1[nH]cnc2c1ncn2[C@H]1CC[C@@H](CO)O1 | LAV | - | p24 | - | <10 µM |
| CC1=CCC[C@H]2[C@](C)(Cc3cc(O)ccc3O)[C@@H](C)CC[C@]12C | IIIB | - | RT activity | - | 0.21 µM |
| CC(C)CC(SC1CCCC1)c1c(O)cc(-c2ccccc2)oc1=O | IIIB | - | - | - | 21 µM |
| Nc1nc2c(ncn2[C@H]2CC[C@@H](CO)O2)c(=O)[nH]1 | LAV | - | p24 | - | >1 µM |
| Cc1cn([C@H]2C[C@H](N=[N+]=[N-])[C@@H](CO)O2)c(=O)[nH]c1=O | IIIB | - | p24 / ELISA | - | <20 µM |
| O=c1cc(-c2ccc(O)cc2)oc2cc(O)cc(O)c12 | IIIB | - | p24 | - | 9 µg/mL |
| CCc1cc(NCc2nc3c(Cl)ccc(Cl)c3o2)c(=O)[nH]c1C | MN | - | p24 | - | 0.067 µM |
| CCCCCCCCCCCCCCCC(=O)Nc1ccn([C@H]2C[C@H](OP(=O)(O)OC[C@H]3O[C@@H](n4cc(C)c(=O)[nH]c4=O)C[C@@H]3N=[N+]=[N-])[C@@H](CO)O2)c(=O)n1 | IIIB | - | MTT / p24 | - | 0.05 µM |
| O=C(O)P(=O)(O)O | - | - | p24 | - | 50 µM |
| CCN1c2ncccc2-c2ncc(C)n2-c2ccc(N(C)C)nc21 | IIIB | - | p24 | 7 d | <0.25 µM |
| COc1cc2c(c(OC)c1O)-c1ccc(SC)c(=O)cc1[C@@H](NC(C)=O)CC2 | IIIB | - | p24 | - | 0.047 µM |
| CN[C@@H]1[C@@H](O)[C@@H](O[C@@H]2[C@@H](O)[C@H](O[C@H]3O[C@H]([C@@H](C)O)[C@@H](O)[C@H](O)[C@H]3N)[C@@H](N)C[C@H]2N)OC[C@]1(C)O | LAI | - | p24 | - | >200 µM |
| Cc1c2cc(O)c(O)cc2cc[n+]1C | IIIB | - | p24 | - | >2.15 µg/mL |
| O=c1oc(-c2ccccc2)cc(O)c1C(CC1CC1)SCc1ccccc1 | IIIB | - | - | - | 33 µM |
| CCc1nccc2cc(O)c(O)cc12 | IIIB | - | p24 | - | >2.08 µg/mL |
| Nc1nc(N)c2ncn([C@H]3CO[C@@H](CO)O3)c2n1 | IIIB | - | - | - | 0.075 µM |
| CC(C)Nc1cccnc1N1CCN(C(=O)c2cc3cc(NS(C)(=O)=O)ccc3[nH]2)CC1 | IIIB | - | p24 | - | 0.01 µM |
| N[C@H]1CCc2cc(O)c(O)c(O)c2-c2ccc(O)c(=O)cc21 | IIIB | - | p24 | - | 30 µM |
| O=c1oc(-c2ccccc2)cc(O)c1C(SCc1ccccc1)c1ccccc1 | IIIB | - | - | - | 16 µM |
| Cc1nccc2cc(O)c(O)cc12 | IIIB | - | p24 | - | >2.22 µg/mL |
| C[C@H]1[C@H](O)[C@@H](C)/C=C/C=C/C=C/C=C/C=C/C=C/C=C/[C@H](O[C@@H]2O[C@H](C)[C@@H](O)[C@H](N)[C@@H]2O)C[C@@H]2O[C@](O)(C[C@@H](O)C[C@@H](O)CC[C@H](O)[C@@H](O)C[C@@H](O)CC(=O)O[C@H]1C)C[C@H](O)[C@H]2C(=O)O | - | - | p24 / ELISA | - | <5 µg/mL |
| CC(C)Nc1cccnc1N1CCN(C(=O)c2cc3cc(NS(C)(=O)=O)ccc3[nH]2)CC1 | A1(RT-G190E) | RT-G190E | p24 | - | >10 µg/mL |
| Nc1nc2c(ncn2[C@H]2CC[C@@H](CO)O2)c(=O)[nH]1 | LAV | - | p24 | - | <10 µM |
| Cc1cn([C@H]2C[C@H](N=[N+]=[N-])[C@@H](CO)O2)c(=O)[nH]c1=O | IIIB | - | p24 | - | 0.036 µM |
| C=CCSS/C=C/CS(=O)CC=C | - | - | - | - | 25 µM |
| CCCCCCCCCCCCCCCCOC[C@H](CCl)OP(=O)(O)OCC[N+](C)(C)C | IIIB | - | RT activity | - | ~1 µM |
| CC[C@H](C)[C@H](NC(=O)c1ccccc1SSc1ccccc1C(=O)N[C@H](C(=O)O)[C@@H](C)CC)C(=O)O | IIIB | - | p24 / RT activity | - | 1.2 µM |
| Nc1nc(N)c2ncn([C@H]3CO[C@@H](CO)O3)c2n1 | IIIB | - | RT activity | - | 0.075 µM |
| CCN1c2ncccc2-c2nccn2-c2ccc(N3CCCC3)nc21 | IIIB | - | p24 | 7 d | <0.082 µM |
| CCOc1ccc(Cc2c3cc(OCC)c(OCC)cc3cc(C)[n+]2C)cc1OCC | IIIB | - | p24 | - | >13 µg/mL |
| CCNC(=O)[C@@H](NC(=O)Cc1ccccc1)[C@@H]1N[C@@H](C(=O)NCCNC(=O)[C@@H]2N[C@@H]([C@H](NC(=O)Cc3ccccc3)C(=O)NCC)SC2(C)C)C(C)(C)S1 | IIIB | - | p24 | - | 0.42 µM |
| CC(C)[C@H](NC(=O)[C@H](Cc1cccc2ccccc12)CS(=O)(=O)C(C)(C)C)C(=O)N[C@@H](Cc1ccccc1)[C@@H](O)[C@H](O)[C@H](Cc1ccccc1)NC(=O)[C@@H](NC(=O)[C@H](Cc1cccc2ccccc12)CS(=O)(=O)C(C)(C)C)C(C)C | MN | - | syncytia | - | 0.004 µM |
| O=c1cc(-c2ccc(O)cc2)oc2cc(O[C@@H]3O[C@H](CO)[C@@H](O)[C@H](O)[C@H]3O)cc(O)c12 | IIIB | - | p24 | - | 1.8 µg/mL |
| Cc1cn([C@H]2C[C@H](N=[N+]=[N-])[C@@H](CO)O2)c(=O)[nH]c1=O | B8 (RT K101I K103N Y181C G190A) | RT-K101I K103N Y181C G190A | p24 | - | 0.03 µg/mL |
| CCN1c2ncccc2-c2nccn2-c2cccnc21 | IIIB | - | p24 | 7 d | <0.07 µM |
| Cc1cn([C@H]2C[C@H](N=[N+]=[N-])[C@@H](CO)O2)c(=O)[nH]c1=O | - | - | RT activity | - | <25 µg/mL |
| COc1ccc2c(c1)N(C(=O)OC(C)C)[C@@H](CSC)C(=S)N2 | MN | - | p24 | - | 0.006 µM |
| CCCC(=O)O[C@H]1CN2CC[C@H](O)[C@@H]2[C@@H](O)[C@@H]1O | RF | - | - | - | <4 µM |
| COc1c(O)c(Cl)c2c(c1OC)-c1c(c(Cl)c(O)c(OC)c1OC)C[C@H](C)[C@H](C)C2 | IIIB | - | p24 | - | 0.68 µM |
| COc1cc(C(=O)N[C@H]2CCc3cc(OC)c(OC)c(OC)c3-c3ccc(OC)c(=O)cc32)cc(OC)c1OC | IIIB | - | p24 | - | 0.02 µM |
| Cc1cn([C@H]2C[C@H](N=[N+]=[N-])[C@@H](CO)O2)c(=O)[nH]c1=O | - | - | ELISA | 2 d | <0.01 µg/mL |

Rows are shuffled and stem from different studies. Blank or dashed fields: not listed here.